Reference: PubChem BioAssay AID624099 (ICCB-Longwood, 2012)
Shown is a random part of about 21,000 reagents tested. 497 of them (2.4%) were called active. 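Higher z means weaker E2 silencing; only reporter increases were scored, and knock-downs that hurt cell survival may mask genuine repressor factors.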 Reagent sequences are not shown.

- Purpose: 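Human genes that papillomavirus E2 requires to repress the HPV18 LCR promoter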 (primary screen)
- Cell system: human C33A cervical carcinoma cells (HPV-negative) stably expressing BPV1 E2 and an HPV18 LCR luciferase reporter
- Reagents: siRNA pool against human genes, 40 nM
- Timing: 72 h
- Measured: 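HPV18 LCR reporter light per well, converted to plate-wise z-scores that exclude control wells, and averaged over triplicate plates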
- Reading the numbers: mean z-score and z-score: higher = stronger reporter signal, weaker E2 silencing
- Rule for the call: 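Mean z ≥ 2 together with z ≥ 2 in two or more of the three replicates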

For SLC35H1, how do the results read?
mean z-score: -0.47; z-score, replicate A: -0.54; z-score, replicate B: -0.31; z-score, replicate C: -0.55; Call: inactive

With DCAKD, what was measured?
mean z-score: -0.31; z-score, replicate A: 0.23; z-score, replicate B: -0.66; z-score, replicate C: -0.5; Call: inactive

What did the screen give for PTK7?
mean z-score: -0.91; z-score, replicate A: -0.82; z-score, replicate B: -1.28; z-score, replicate C: -0.65; Call: inactive

Which result is listed for MIB2?
mean z-score: -0.35; z-score, replicate A: -0.2; z-score, replicate B: -0.73; z-score, replicate C: -0.12; Call: inactive

Which result is listed for XPC?
mean z-score: -0.26; z-score, replicate A: -0.19; z-score, replicate B: -0.33; z-score, replicate C: -0.26; Call: inactive

For TFIP11, what was measured?
mean z-score: 0.77; z-score, replicate A: 0.59; z-score, replicate B: 0.74; z-score, replicate C: 1; Call: inactive

With TLX3, what was measured?
mean z-score: 1.48; z-score, replicate A: 1.22; z-score, replicate B: 1.8; z-score, replicate C: 1.43; Call: inactive

Which result is listed for ANAPC16?
mean z-score: 0.72; z-score, replicate A: 0.58; z-score, replicate B: 0.79; z-score, replicate C: 0.79; Call: inactive

With DUSP13B, what does the deposit list?
mean z-score: -1.32; z-score, replicate A: -1.15; z-score, replicate B: -1.47; z-score, replicate C: -1.34; Call: inactive

For LOC339022 (retired record), how do the results read?
mean z-score: 0.08; z-score, replicate A: 0.09; z-score, replicate B: 0.69; z-score, replicate C: -0.54; Call: inactive

For ORC1, what does the deposit list?
mean z-score: -0.17; z-score, replicate A: -0.1; z-score, replicate B: -0.06; z-score, replicate C: -0.35; Call: inactive

With FYTTD1, how do the results read?
mean z-score: 2.87; z-score, replicate A: 2.61; z-score, replicate B: 2.94; z-score, replicate C: 3.06; Call: active
